Results of unrelated studies side by side (data: NIAID ChemDB).

Common to all: target-level tests; species: HIV-1; target: Integrase; method: 3′ processing; endpoint: IC50

An empty or dashed field is not shown. ICn is the concentration giving n% inhibition. Conditions beyond the fields shown may differ between rows.

structure | strain | result
CC(=O)Oc1cccc2c1C(=O)C1CC(O)C(O)C3OC(C)(C)OC2(C)C13 | - | 118 µM
NC(N)=NC(N)=Nc1ccc(S(=O)(=O)c2ccc(N=C(N)N=C(N)N)cc2)cc1 | - | >100 µM
Nc1nc2c(ncn2CCOCP(=O)(O)OP(=O)(O)OP(=O)(O)O)c(=O)[nH]1 | - | 82 µM
O=S(=O)(SC(Cl)(Cl)Cl)c1cccc(S(=O)(=O)c2cccc(S(=O)(=O)SC(Cl)(Cl)Cl)c2)c1 | - | 20.7 µM
O=C1Sc2cc3ccccc3cc2C(=O)N2CSC[C@@H]12 | - | 65 µM
Nc1ncnc2c1ncn2[C@H]1CC[C@@H](COP(=O)(O)OP(=O)(O)OP(=O)(O)O)O1 | - | 150 µM
COC(=O)C(=O)OC1(C(=O)O)C[C@@H](OC(=O)/C=C/c2ccc(O)c(O)c2)C(O)[C@H](OC(=O)/C=C/c2ccc(O)c(O)c2)C1 | LAI | 0.27 ± 0.08 µg/mL
Nc1ncnc2c1ncn2CCOCP(=O)(O)O | - | 840 µM
O=C1CCCC(=O)NNC(=O)NCCCCCCNC(=O)NN1 | - | >250 µM
CCCCCCCCCCCCCCCCOC(=O)C(CCSC)NCNc1ccc(S(=O)(=O)c2ccc(NCNC(CCSC)C(=O)OCCCCCCCCCCCCCCCC)cc2)cc1 | - | >100 µM
[N-]=[N+]=NCc1cccc(C(=O)CC(=O)C(=O)O)c1 | - | 70 µM
O=C(/C=C/c1ccc(O)c(O)c1)O[C@@H]1CC(O)(C(=O)O)C[C@@H](OC(=O)/C=C/c2ccc(O)c(O)c2)C1O | LAI | 0.33 ± 0.12 µg/mL
O=C(NCCCl)Nc1ccc(S(=O)(=O)c2ccc([N+](=O)[O-])cc2)cc1 | - | >100 µM
Nc1ccn([C@H]2C[C@H](OP(=O)(O)OC[C@H]3OC[C@@H](n4ccc(=O)[nH]c4=O)[C@@H]3O)[C@@H](COP(=O)(O)O)O2)c(=O)n1 | - | 164 µM
COc1c(OC)c(OC)c(-c2cc(=O)c3c(OC)c(OC)c(OC)c(OC)c3o2)c(OC)c1OC | - | >250 µM
O=c1oc2ccccc2c(O)c1C(c1ccc(OCCO)cc1)c1c(O)c2ccccc2oc1=O | - | >100 µM
O=[N+]([O-])c1cc(C(F)(F)F)ccc1S(=O)(=O)c1ccccc1 | - | >100 µM
COc1cc(NC2=C(Cl)C(=O)C(Nc3cc(OC)c(OC)c(OC)c3)C(Cl)C2=O)cc(OC)c1OC | - | >250 µM
C[C@@H]1O[C@@H](Oc2c(-c3cc(O)c(O)c(O)c3)oc3cc(O)cc(O)c3c2=O)[C@H](O)[C@H](O)[C@H]1O | - | 39.81 µM
COc1ccc(C(=O)Oc2ccc(C(c3c(O)c4ccccc4oc3=O)c3c(O)c4ccccc4oc3=O)cc2)cc1 | - | 3.1 µM
O=C(O)C(=Cc1ccc(O)c(O)c1)C(=Cc1ccc(O)c(O)c1)C(=O)O | - | 0.83 µM
O=[N+]([O-])c1cccc(S(=O)(=O)c2cccc([N+](=O)[O-])c2)c1 | - | >100 µM
O=C(Oc1ccc(C(c2c(O)c3ccccc3oc2=O)c2c(O)c3ccccc3oc2=O)cc1)c1ccccc1 | - | 2.6 µM
COc1cc(O)c2c(=O)c(O[C@@H]3O[C@@H](CO)[C@H](O)[C@H]3O)c(-c3ccc(O)c(O)c3)oc2c1 | - | 66.07 µM
O=c1oc2ccccc2c(O)c1C(c1ccc(OS(=O)(=O)c2ccc3ccccc3c2)cc1)c1c(O)c2ccccc2oc1=O | - | 2.1 µM
COc1ccc(/C=C/C(=O)OC[C@H]2O[C@@H](OCCc3ccc(O)c(O)c3)[C@H](O)[C@@H](O[C@@H]3O[C@@H](C)[C@H](O)[C@@H](O)[C@H]3O)[C@@H]2O)cc1O | - | 39.9 µM
Cc1ccc(S(=O)(=O)Oc2ccc(C(c3c(O)c4ccccc4oc3=O)c3c(O)c4ccccc4oc3=O)cc2)cc1 | - | 3.9 µM
Nc1ccn([C@@H]2CO[C@H](COP(=O)(O)O[C@H]3[C@H](n4cnc5c(N)ncnc54)CO[C@@H]3COP(=O)(O)O)[C@H]2O)c(=O)n1 | - | >1000 µM
O=S(=O)(c1ccc(Cl)c(Cl)c1)c1ccc(Cl)c(Cl)c1 | - | >100 µM
Nc1nc2c(ncn2[C@H]2CC[C@@H](CO)O2)c(=O)[nH]1 | - | 1000 µM
Nc1ncnc2c1ncn2[C@@H]1CO[C@H](COP(=O)(O)O)[C@H]1OP(=O)(O)OC[C@H]1O[C@@H](n2ccc(=O)[nH]c2=O)[C@H](O)[C@@H]1O | - | >1000 µM
O=C1C2C3CCC(O3)C2C(=O)N1N1C(=O)C2C3CCC(O3)C2C1=O | - | >250 µM
COc1ccc(/C=C/C(=O)O[C@H]2[C@H](O[C@@H]3O[C@@H](C)[C@H](O)[C@@H](O)[C@H]3O)[C@@H](O)[C@H](OCCc3ccc(O)c(O)c3)O[C@@H]2CO)cc1O | - | 29.4 µM
O=C(/C=C/c1ccc(O)c(O)c1)O[C@@H]1CC(O)(C(=O)O)C[C@@H](OC(=O)/C=C/c2ccc(O)c(O)c2)C1O | - | 0.64 µM
Cc1ccc(C(=O)Oc2ccc(C(c3c(O)c4ccccc4oc3=O)c3c(O)c4ccccc4oc3=O)cc2)cc1 | - | 0.5 µM
COc1cc(O)c2c(=O)c(O)c(-c3ccc(O)c(O)c3)oc2c1 | - | 61.66 µM
O=c1oc2ccccc2c(O)c1C(c1ccccc1)c1c(O)c2ccccc2oc1=O | - | 43 µM
O=c1c(O)c(-c2ccc(O)c(O)c2)oc2c(O[C@@H]3O[C@H](CO)[C@@H](O)[C@H](O)[C@H]3O)c(O)cc(O)c12 | - | 69.18 µM
O=C(O)C(=O)CC(=O)c1ccc(N2CCOCC2)cc1 | - | 100 µM
Cc1cc2c(cc1Cl)SC(NNc1cnc3ccccc3n1)=NS2(=O)=O | - | 127 µM
NC(N)=NC(N)=Nc1cccc(S(=O)(=O)c2cccc(N=C(N)N=C(N)N)c2)c1 | - | >100 µM
COc1c(O)cc2oc(-c3ccc(O)c(O)c3)cc(=O)c2c1O | - | 93.33 µM
O=c1oc2ccccc2c(O)c1C(c1ccc(C(c2c(O)c3ccccc3oc2=O)c2c(O)c3ccccc3oc2=O)cc1)c1c(O)c2ccccc2oc1=O | - | 1.1 µM

For reference, 6 entries again:

{"structure": "Nc1nc2c(ncn2[C@H]2CC[C@@H](CO)O2)c(=O)[nH]1", "result": "1000 µM"}
{"structure": "O=c1oc2ccccc2c(O)c1C(c1ccc(C(c2c(O)c3ccccc3oc2=O)c2c(O)c3ccccc3oc2=O)cc1)c1c(O)c2ccccc2oc1=O", "result": "1.1 µM"}
{"structure": "NC(N)=NC(N)=Nc1ccc(S(=O)(=O)c2ccc(N=C(N)N=C(N)N)cc2)cc1", "result": ">100 µM"}
{"structure": "Nc1ncnc2c1ncn2[C@@H]1CO[C@H](COP(=O)(O)O)[C@H]1OP(=O)(O)OC[C@H]1O[C@@H](n2ccc(=O)[nH]c2=O)[C@H](O)[C@@H]1O", "result": ">1000 µM"}
{"structure": "O=c1oc2ccccc2c(O)c1C(c1ccc(OS(=O)(=O)c2ccc3ccccc3c2)cc1)c1c(O)c2ccccc2oc1=O", "result": "2.1 µM"}
{"structure": "CCCCCCCCCCCCCCCCOC(=O)C(CCSC)NCNc1ccc(S(=O)(=O)c2ccc(NCNC(CCSC)C(=O)OCCCCCCCCCCCCCCCC)cc2)cc1", "result": ">100 µM"}